PubChem BioAssay AID504761 – Drosophila RNAi Screening Center – 2011
In all, the deposit lists about 22,000 reagents; shown is an unselected part of those with a known target gene and a result. Over the whole deposit, 116 (0.52%) are marked active. 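Calls depend on retest data that are not deposited; infection was ranked per plate without normalising between plates; the unit of the infection score is not given.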 Raw values are not corrected between plates. A number with no mark means an inactive call. A plus sign joins genes that one reagent is predicted to hit. Not stated in the record: the amount of reagent, the time to read-out.

- Test: 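Genome-wide fly cell screen for genes dengue virus requires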 (primary screen)
- System: D.Mel-2 cells from Drosophila
- Reagent: long dsRNA against Drosophila genes
- Conditions: infection with dengue virus type 2; dose and infection time not stated
- Measured: 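Per well on two replicate plates, imaging gave the percent of cells positive for viral envelope protein, ranked by infection, and a nuclear count of cells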
- Reading the numbers: infection score: higher = more virus-infected cells; cell count: higher = more cells in the well
- Active means: 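Very low infection ranking in both replicate wells (chance probability at most 0.065), then a retest showing infection dropped 1.5-fold or more at p below 0.05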
- Meaning of the calls: active = confirmed: knock-down lowers infection; inactive = not picked or not confirmed

Target gene | dsRNA | infection score, replicate 1 | infection score, replicate 2 | cell count, replicate 1 | cell count, replicate 2
CG18417 | DRSC10319 | 2.12 | 4.44 | 5754 | 6197
CG18417 | DRSC23997 | 4.26 | 2.72 | 6449 | 6845
Chmp1 | DRSC10401 | 7.94 | 20.1 | 6256 | 5325
Chmp1 | DRSC25878 | 9.69 | 8.25 | 6488 | 5979
mtd | DRSC12131 | 20.7 | 25.9 | 5643 | 6712
mtd | DRSC12380 | 8.84 | 12 | 6505 | 6993
mtd | DRSC12381 | 5.04 | 3.83 | 7026 | 6768
mtd | DRSC29132 | – | – | 380 | 332

2 consecutive entries from above, quoted:
Target gene | dsRNA | infection score, replicate 1 | infection score, replicate 2 | cell count, replicate 1 | cell count, replicate 2
CG18417 | DRSC10319 | 2.12 | 4.44 | 5754 | 6197
CG18417 | DRSC23997 | 4.26 | 2.72 | 6449 | 6845

Additional entries follow:
Target gene | dsRNA | infection score, replicate 1 | infection score, replicate 2 | cell count, replicate 1 | cell count, replicate 2
pyx | DRSC08510 | 2.55 | 8.75 | 6090 | 5852
pyx | DRSC08511 | 4.29 | 16.6 | 6182 | 2385
pyx | DRSC28167 | 7.52 | 34.3 | 6385 | 5215
CG5282 | DRSC11775 | 7.23 | 3.08 | 954 | 7113
CG2901 | DRSC18239 | 1.61 | 0.47 | 6197 | 6016
ND-ASHI | DRSC18291 | 2.34 | 2.38 | 6419 | 6588
ND-ASHI | DRSC27165 | 3.99 | 28.2 | 6464 | 5877
Arr1 | DRSC01867 | 1.5 | 1.11 | 4605 | 6665
mRpL54 | DRSC04545 | 21.7 | 16.2 | 6190 | 6108
CG15059 | DRSC19633 | 13.3 | 15.9 | 5257 | 6005
CG15059 | DRSC28667 | 13.6 | 0.91 | 4631 | 549
CG8272 | DRSC07134 | 18.4 | 15.1 | 6068 | 6527
spz5 | DRSC08645 | 22.5 | 21 | 6070 | 5526
CG10013 | DRSC14175 | 4.48 | 6.24 | 6431 | 6731
Obp50b + Obp50c | DRSC21818 | 4.64 | 13.9 | 6631 | 3911
